Measured values from several laboratories, pooled; numbers as filed in NIAID ChemDB.

All rows: tests in culture; agent: Candida krusei

A number after MIC or MFC names an inhibition level or a share of isolates.

smiles,read by,tested at,strain,measure,result
COc1ccc(C=O)cc1OCC(O)(Cn1cncn1)c1ccc(F)cc1F,broth dilution,-,ATCC 6258,MIC50,128 µg/mL
CC1CC(=O)N(CCCc2ccccc2)C1=O,broth dilution / turbidity,-,CCC 117-2000,MIC,125 µg/mL
C[C@@H](N1CCN(Cc2cn(Cc3ccc(C(F)(F)F)cc3)c3ccccc23)CC1)[C@](O)(Cn1cncn1)c1ccc(F)cc1F,resazurin,-,ATCC 6258,MIC80,0.5 µg/mL
c1ccc(C(c2ccccc2)n2cncn2)cc1,broth dilution,-,-,MFC,>256 µg/mL
C[C@@H]1CC(=O)N(CCc2ccccc2)C1=O,broth dilution / turbidity,-,CCC 117-2000,MIC,125 µg/mL
C=CCc1ccc(Cn2cc(CN3CCN([C@H](C)[C@](O)(Cn4cncn4)c4ccc(F)cc4F)CC3)c3ccccc32)cc1,resazurin,-,ATCC 6258,MIC80,2 µg/mL
CC(=O)Nc1ccc(C(=O)N/N=C/c2ccc(N(C)C)cc2)cc1,broth dilution,-,ATCC 6258,EC50,310 µM
CC1CC(=O)N(c2ccc(F)cc2)C1=O,broth dilution / turbidity,-,CCC 117-2000,MIC,125 µg/mL
Cc1ccc(-n2cc(C(C)(C)O)nn2)cc1C,broth dilution,2048 µg/mL,URM 109,inhibition,0%
COc1cc(/C=N/NC(=O)c2ccc(NC(C)=O)cc2)ccc1O,broth dilution,-,ATCC 6258,EC50,120 µM
C[C@@H](N1CCN(Cc2cn(Cc3ccc(C(F)(F)F)cc3)c3c(F)cccc23)CC1)[C@](O)(Cn1cncn1)c1ccc(F)cc1F,resazurin,-,ATCC 6258,MIC80,1 µg/mL
Clc1ccc(C(c2ccccc2)n2cncn2)cc1,broth dilution,-,-,MFC,256 µg/mL
C[C@@H]1C(=O)N(CCCc2ccccc2)C(=O)[C@@H]1C,broth dilution / turbidity,-,CCC 117-2000,MIC,62.5 µg/mL
CCCCCCCCCCn1cc[n+](COCCCOC[n+]2ccn(CCCCCCCCCC)c2)c1,agar diffusion,-,ATCC 6258,MIC100,32 µM
CC(C)(O)c1cn(-c2cccc3ccccc23)nn1,broth dilution,2048 µg/mL,URM 4263,inhibition,0%
CC(C)CC(=O)C(=O)O,broth dilution,-,D 206 B,MFC100,>72000 µg/mL
C[C@@H](N1CCN(Cc2cn(Cc3ccc(F)cc3F)c3ccccc23)CC1)[C@](O)(Cn1cncn1)c1ccc(F)cc1F,resazurin,-,ATCC 6258,MIC80,0.5 µg/mL
CC1(O)OC(=O)C(c2ccc(OCC(O)(Cn3cncn3)c3ccc(F)cc3F)cc2)=C1c1ccc(F)cc1F,broth dilution,-,ATCC 6258,MIC50,16 µg/mL
CC(O)Cn1cc(CN2CCN([C@H](C)[C@](O)(Cn3cncn3)c3ccc(F)cc3F)CC2)c2cccc(Cl)c21,resazurin,-,ATCC 6258,MIC80,16 µg/mL
C=CCc1ccc(OC)c(OC)c1,turbidity,-,191,MIC90,350 µg/mL
CCCCCCCCn1cc[n+](COCCCCCCOC[n+]2ccn(CCCCCCCC)c2)c1,agar diffusion,-,ATCC 6258,MIC100,35 µM
CC(C)C(NC(=O)C(N)Cc1ccccc1)C(=O)NC(Cc1ccc(O)cc1)C(=O)O,broth dilution,-,ATCC 6258,MFC,701 µg/mL
C[C@@H](N1CCN(Cc2cn(Cc3ccc(F)cc3F)c3c(F)cccc23)CC1)[C@](O)(Cn1cncn1)c1ccc(F)cc1F,resazurin,-,ATCC 6258,MIC80,0.5 µg/mL
Clc1ccc(C(c2ccccc2)N2CCN(CCn3cncn3)CC2)cc1,broth dilution,-,-,MFC,>256 µg/mL
CC(C)(O)c1cn(-c2ccc3ccccc3c2)nn1,broth dilution,2048 µg/mL,URM 4802,inhibition,0%
CCCCn1cc[n+](COCCCCCOC[n+]2ccn(CCCC)c2)c1,agar diffusion,-,ATCC 6258,MIC100,779 µM
O=C1OCC(c2ccccc2)=C1c1ccc(OCC(O)(Cn2cncn2)c2ccc(F)cc2F)cc1,broth dilution,-,ATCC 6258,MIC50,4 µg/mL
CC(C)(O)c1cn(-c2ccc([N+](=O)[O-])cc2)nn1,broth dilution,2048 µg/mL,URM 109,inhibition,0%
CCC(C)CC(C)CCCCCCCCC(=O)N[C@H]1C[C@@H](O)[C@H](NCCN)NC(=O)[C@@H]2[C@@H](O)CCN2C(=O)[C@H]([C@H](O)CCN)NC(=O)[C@H]([C@H](O)[C@@H](O)c2ccc(O)cc2)NC(=O)[C@@H]2C[C@@H](O)CN2C(=O)[C@H]([C@@H](C)O)NC1=O,broth dilution,-,ATCC 6258,MIC50,0.25 µg/mL
COc1ccc(N2C(=O)C[C@@H](C)C2=O)cc1,broth dilution / turbidity,-,CCC 117-2000,MIC,62.5 µg/mL
C[C@@H](N1CCN(Cc2cn(Cc3ccc(F)cc3F)c3c(C#N)cccc23)CC1)[C@](O)(Cn1cncn1)c1ccc(F)cc1F,resazurin,-,ATCC 6258,MIC80,32 µg/mL
CC(C)CC(O)C(=O)O,broth dilution,-,ATCC 6258,EC50,36000 µg/mL
CCCCCn1cc[n+](COCCCOC[n+]2ccn(CCCCC)c2)c1,agar diffusion,-,ATCC 6258,MIC100,1379 µM
C[C@@H](N1CCN(Cc2cn(Cc3cccc(C(F)(F)F)c3)c3c(F)cccc23)CC1)[C@](O)(Cn1cncn1)c1ccc(F)cc1F,resazurin,-,ATCC 6258,MIC80,1 µg/mL
CC(NC(=O)C(N)Cc1ccccc1)C(=O)NC(Cc1ccc(O)cc1)C(=O)O,broth dilution,-,ATCC 6258,MFC,696 µg/mL
C[C@@H](N1CCN(Cc2cn(Cc3ccc(C(F)(F)F)cc3)c3cc(Cl)ccc23)CC1)[C@](O)(Cn1cncn1)c1ccc(F)cc1F,resazurin,-,ATCC 6258,MIC80,1 µg/mL
c1ccc(C(c2ccccc2)n2nnc3ccccc32)cc1,agar,-,-,MIC90,>256 µg/mL
COc1ccc(N2C(=O)CC(C)C2=O)cc1,broth dilution / turbidity,-,CCC 117-2000,MIC,125 µg/mL

Repeating the final 5 entries:

smiles	read by	tested at	strain	measure	result
C[C@@H](N1CCN(Cc2cn(Cc3cccc(C(F)(F)F)c3)c3c(F)cccc23)CC1)[C@](O)(Cn1cncn1)c1ccc(F)cc1F	resazurin	-	ATCC 6258	MIC80	1 µg/mL
CC(NC(=O)C(N)Cc1ccccc1)C(=O)NC(Cc1ccc(O)cc1)C(=O)O	broth dilution	-	ATCC 6258	MFC	696 µg/mL
C[C@@H](N1CCN(Cc2cn(Cc3ccc(C(F)(F)F)cc3)c3cc(Cl)ccc23)CC1)[C@](O)(Cn1cncn1)c1ccc(F)cc1F	resazurin	-	ATCC 6258	MIC80	1 µg/mL
c1ccc(C(c2ccccc2)n2nnc3ccccc32)cc1	agar	-	-	MIC90	>256 µg/mL
COc1ccc(N2C(=O)CC(C)C2=O)cc1	broth dilution / turbidity	-	CCC 117-2000	MIC	125 µg/mL

Inhibition is in % at the dose shown (toxicity tests: loss of growth or viability). Blank or dashed fields: not listed here. ECn is the concentration giving n% inhibition of infection, replication or growth. Neighbouring rows are from separate reports.